A mixed list of measured activities; the numbers were collected in NIAID ChemDB.

Common to all: tests in culture; species: HIV-1; read by: p24; measure: EC95

Two numbers with a dash give a range or band. Blank or dashed fields: not listed here. ECn is the concentration giving n% inhibition of infection, replication or growth. Rows are shuffled and stem from different studies.

compound,conditions,strain or isolate,cell line,changes,value
O=C(N[C@H]1c2ccccc2OC[C@H]1O)[C@H](Cc1cccnc1)C[C@H](O)CN1CCN(Cc2ccn(-c3ccccc3Cl)c2)C[C@H]1C(=O)NCC(F)(F)F,,NL4-3 WT,MT-4,,≤0.008 µM
O=C1c2c(O)c(=O)n(C3CCCCN(Cc4ccccc4)C3=O)c(=O)n2CCN1Cc1ccc(F)cc1,,,MT-4,,<10 µM
O=C(N[C@H]1c2ccccc2OC[C@H]1O)[C@H](Cc1cccnc1)C[C@H](O)CN1CCN(Cc2ccn(-c3cc(Cl)c(Cl)c(Cl)c3)c2)C[C@H]1C(=O)NCC(F)(F)F,,Q-60C Clinical isolate,MT-4,PR-L10I N37S R41K M46I I54V I62V L63P A71V V77I V82A L90M I93L,≤0.008 µM
CCn1nc(Cc2ccc(C#N)cc2)cc1C1CCN(C[C@H]2CN([C@@H](C(=O)O)C(C)(C)C)C[C@@H]2c2cccc(F)c2)CC1,50% human serum,BaL,PBMC,,0.0093 µM
CN(C)C(=O)C(=O)N1CCOCC1Cn1c(=O)c(O)c2n(c1=O)CCN(Cc1ccc(F)cc1)C2=O,,,MT-4,,<10 µM
CC(C)(c1ncc(-c2ccc(Cl)cc2)o1)N1CCN(C[C@@H](O)C[C@@H](Cc2cc3ccncc3s2)C(=O)N[C@H]2c3ccccc3OC[C@H]2O)[C@H](C(=O)NCC(F)(F)F)C1,,NL4-3,MT-4,,<0.0078 µM
CC[C@H](C)[C@H](C(=O)O)N1C[C@H](CN2CCC(c3cc(Cc4ccc(OC)c(OC)c4)nn3CC)CC2)[C@@H](c2cccc(F)c2)C1,,BaL,PBMC,,0.0055 µM
CC(C)(c1ncc(-c2ccc(Cl)cc2)o1)N1CCN(C[C@@H](O)C[C@@H](Cc2cc3cnccc3s2)C(=O)N[C@H]2c3ccccc3OC[C@H]2O)[C@H](C(=O)NCC(F)(F)F)C1,,4X (PR M46I L63P V82T I84V),MT-4,PR-M46I L63P V82T I84V,<0.0078 µM
CN(C[C@@H](CCN1CCC2(CC1)CS(=O)c1ccccc12)c1ccc(Cl)c(Cl)c1)S(=O)(=O)c1ccccc1,,YU-2 (M-tropic),PBMC,,12.5 µM
CC(C)(c1ncc(-c2ccc(Cl)cc2)o1)N1CCN(C[C@@H](O)C[C@@H](Cc2cc3ccncc3o2)C(=O)N[C@H]2c3ccccc3OC[C@H]2O)[C@H](C(=O)NCC(F)(F)F)C1,,NL4-3,MT-4,,0.0078 µM
CN(CCc1nc(C(=O)NCc2ccc(F)cc2)c(O)c(=O)[nH]1)Cc1ccccc1,10% FBS,IIIB,MT-4,,10 µM
O=C1c2c(O)c(=O)n(-c3ccc(N4CCOCC4)cc3)c(=O)n2CCN1Cc1ccc(F)cc1,,,MT-4,,<10 µM
CC(C)(C)NC(=O)[C@@H]1C[C@@H]2CCCC[C@@H]2CN1C[C@@H](O)[C@H](Cc1ccccc1)NC(=O)O[C@@H]1CO[C@@H]2CCO[C@@H]21,,IIIB,MT-4,,>0.2 µM
O=c1[nH]cnc2c1ncn2[C@H]1CC[C@@H](CO)O1,,rA17,MT-4,,50 µM
CC(C)(C)NC(=O)[C@@H]1C[C@@H]2CCCC[C@@H]2CN1C[C@@H](O)[C@H](Cc1ccccc1)NC(=O)OC12CCOC1OCC2,,IIIB,MT-4,,>0.2 µM
O=C(N[C@H]1c2ccccc2OCC1O)[C@H](Cc1cccnc1)C[C@H](O)CN1CCN(Cc2ccc(-c3ccccc3)o2)C[C@H]1C(=O)NCC(F)(F)F,,K-60C Clinical isolate,MT-4,PR-L10I M46I I54V Q58E L63P I64V V77I V82F I84V L90M I93L,≤0.008 µM
O=C(CSc1nnnn1-c1cccc(Cl)c1Cl)Nc1ccccc1Cl,,,MT-4,,<10 µM
O=C(O)C(=O)CC(=O)c1cccc(Cc2ccccc2)c1,,IIIB,MT-4,,0.8 µM
CCc1cc(CCc2nc3c(Cl)ccc(Cl)c3o2)c(=O)[nH]c1C,,A17,H9,RT-K103N Y181C,1.5 µM
CC(C)(C)NC(=O)[C@@H]1C[C@@H]2CCCC[C@@H]2CN1C[C@@H](O)[C@H](Cc1ccccc1)NC(=O)O[C@H]1CO[C@H]2OCC[C@H]21,,IIIB,MT-4,,0.046 µM
O=C(NCc1ccc(F)cc1)c1nc(C2CCCNC2)[nH]c(=O)c1O,10% FBS,IIIB,MT-4,,>10 µM
CC(C)Oc1ccc(Cc2ccccc2)cc1C(=O)CC(=O)C(=O)O,,IIIB,MT-4,,0.1 µM
Cc1cc(C)c(-n2nnnc2SCC(=O)Nc2cccc3cccnc23)c(C)c1,,,MT-4,,<10 µM
Cc1ccccc1-n1ccc(CN2CCN(C[C@@H](O)C[C@@H](Cc3cccnc3)C(=O)N[C@H]3c4ccccc4OC[C@H]3O)[C@H](C(=O)NCC(F)(F)F)C2)c1,,NL4-3 WT,MT-4,,≤0.008 µM
CC(C)CN1CCCCC1c1nc(C(=O)NCc2ccc(F)cc2)c(O)c(=O)[nH]1,10% FBS,IIIB,MT-4,,1 µM
O=C(N[C@H]1c2ccccc2OC[C@H]1O)[C@H](Cc1nnco1)C[C@H](O)CN1CCN(Cc2ccc(-c3ccc(Cl)cc3)o2)C[C@H]1C(=O)NCC(F)(F)F,,Q-60 Clinical isolate,MT-4,PR-L10I N37S R41K M46I I54V I62V L63P A71V V77I V82A L90M I93L,0.031 µM
CCc1cc(CCc2nc3ccccc3o2)c(=S)[nH]c1C,,A17,H9,RT-K103N Y181C,25 µM
CN1CC(O)C(C)(C)Cn2c(c3c(c(O)c2=O)C(=O)N(Cc2ccc(F)c(Cl)c2)CC3)C1=O,,,MT-4,,0.031 µM
O=C(N[C@H]1c2ccccc2OC[C@H]1O)[C@H](Cc1cccnc1)C[C@H](O)CN1CCN(Cc2ccn(-c3ccc(Cl)cc3)c2)C[C@H]1C(=O)NCC(F)(F)F,,V-18C Clinical isolate,MT-4,PR-L10I M36I N37D M46I R57K L63P A71V G73S I84V L90M I93L,≤0.008 µM
CCCN(C(=O)NCc1ccccc1)C1CCN(CCC(CN(C)S(=O)(=O)c2ccccc2)c2ccccc2)CC1,,YU-2 (M-tropic),PBMC,,3 µM
CCCc1nnc(C[C@H](C[C@H](O)CN2CCN(C(C)(C)c3ncc(-c4cncc(OC)c4)o3)C[C@H]2C(=O)NCC(F)(F)F)C(=O)N[C@H]2c3ccccc3OC[C@H]2O)o1,,K-60 Clinical isolate,MT-4,PR-L10I M46I I54V Q58E L63P I64V V77I V82F I84V L90M I93L,0.5 µM
Cc1cc(C)c(-n2nnnc2SCC(=O)Nc2ccccc2C(F)(F)F)c(C)c1,,,MT-4,,<10 µM
CC(C)(C)NC(=O)[C@@H]1C[C@@H]2CCCC[C@@H]2CN1C[C@@H](O)[C@H](Cc1ccccc1)NC(=O)[C@H](CC(N)=O)NC(=O)c1ccc2ccccc2n1,,NL4-3,MT-4,PR-L63P,0.05 µM
CCc1cc(NCc2nc3c(Cl)ccc(Cl)c3o2)c(=O)[nH]c1C,,WMJ-2,MT-4,,0.2 µM
CCc1cc(NCc2nc3c(C)ccc(C)c3o2)c(=O)[nH]c1C,,A17,MT-4,,25 µM
CC(C)(C)NC(=O)[C@@H]1C[C@@H]2CCCC[C@@H]2CN1C[C@@H](O)[C@H](Cc1ccccc1)NC(=O)[C@@H](NC(=O)c1ccc2ccccc2n1)[C@@H]1CCSC1,,IIIB,MT-4,,>0.2 µM
O=C(N[C@H]1c2ccccc2OC[C@H]1O)[C@H](Cc1cccnc1)C[C@H](O)CN1CCN(Cc2ccn(-c3ccc(F)c(F)c3F)c2)C[C@H]1C(=O)NCC(F)(F)F,,Q-60C Clinical isolate,MT-4,PR-L10I N37S R41K M46I I54V I62V L63P A71V V77I V82A L90M I93L,≤0.008 µM
CC(C)(c1ncc(-c2ccc(Cl)cc2)o1)N1CCN(C[C@@H](O)C[C@@H](Cc2nnco2)C(=O)N[C@H]2c3ccccc3OC[C@H]2O)[C@H](C(=O)NCC(F)(F)F)C1,,K-60 Clinical isolate,MT-4,PR-L10I M46I I54V Q58E L63P I64V V77I V82F I84V L90M I93L,0.063 µM
CN(C[C@@H](CCN1CCC(CCCc2ccccc2)CC1)c1cccc(Cl)c1)S(=O)(=O)c1ccccc1,,YU-2 (M-tropic),PBMC,,12.5 µM
O=C(N[C@H]1c2ccccc2OC[C@H]1O)[C@H](Cc1cc2ccncc2o1)C[C@H](O)CN1CCN(Cc2ccc(-c3ccc(Cl)cc3)o2)C[C@H]1C(=O)NCC(F)(F)F,,4X (PR M46I L63P V82T I84V),MT-4,PR-M46I L63P V82T I84V,0.0313 µM
O=C(CSc1nnnn1-c1cccc2ccccc12)Nc1ccccc1F,,,MT-4,,<10 µM
Nc1cccc(CN2C(=O)N(Cc3cccc(N)c3)[C@H](Cc3ccccc3)[C@H](O)[C@@H](O)[C@H]2Cc2ccccc2)c1,,PR-WT,MT-4,,0.1–0.4 µM
COc1cncc(-c2cnc(C(C)(C)N3CCN(C[C@@H](O)C[C@@H](Cc4nnc(C)o4)C(=O)N[C@H]4c5ccccc5OC[C@H]4O)[C@H](C(=O)NCC(F)(F)F)C3)o2)c1,,K-60 Clinical isolate,MT-4,PR-L10I M46I I54V Q58E L63P I64V V77I V82F I84V L90M I93L,>1 µM
CC(C)(C)NC(=O)[C@@H]1C[C@@H]2CCCC[C@@H]2CN1C[C@@H](O)[C@H](Cc1ccccc1)NC(=O)[C@H](CC(N)=O)NC(=O)c1ccc2ccccc2n1,,PR-WT,MT-4,,0.025–0.1 µM
O=C(O)C(=O)CC(=O)c1cccn1Cc1ccccc1,,IIIB,MT-4,,32 µM
Cc1cn([C@H]2C[C@H](N=[N+]=[N-])[C@@H](CO)O2)c(=O)[nH]c1=O,,IIIB,MT-2,,0.0695 µg/mL
Cc1cccc(C)c1CNC(=O)[C@H]1N(C(=O)[C@@H](O)C[C@@H](Cc2ccccc2)C(=O)N[C@H]2c3ccccc3C[C@H]2O)CSC1(C)C,,,MT-4,PR-V18C,0.031 µM
O=C(NCc1ccc(F)cc1)c1nc(C2CCNCC2)[nH]c(=O)c1O,10% FBS,IIIB,MT-4,,>10 µM
CC(C)(C)OC(=O)C(C)(C)n1c(=O)c(O)c2n(c1=O)CCN(Cc1ccc(F)cc1)C2=O,,,MT-4,,<10 µM
O=C(O)C(=O)CC(=O)c1cc(OCc2ccccc2)cc(OCc2ccccc2)c1,,IIIB,MT-4,,17.4 µM
Cc1nnc(C[C@H](C[C@H](O)CN2CCN(Cc3ccc(-c4ccc(Cl)cc4)o3)C[C@H]2C(=O)NCC(F)(F)F)C(=O)N[C@H]2c3ccccc3OC[C@H]2O)o1,,Q-60 Clinical isolate,MT-4,PR-L10I N37S R41K M46I I54V I62V L63P A71V V77I V82A L90M I93L,0.031 µM
O=C1N(Cc2ccc(CO)cc2)[C@H](Cc2ccccc2)[C@H](O)[C@@H](O)[C@@H](Cc2ccccc2)N1Cc1ccc(CO)cc1,,NL4-3,MT-4,PR-L63P,0.1 µM
CCCc1nnc(C[C@H](C[C@H](O)CN2CCN(Cc3ccc(-c4ccc(Cl)cc4)o3)C[C@H]2C(=O)NCC(F)(F)F)C(=O)N[C@H]2c3ccccc3OC[C@H]2O)o1,,NL4-3 WT,MT-4,,≤0.008 µM
CCc1cc(NCc2nc3c(C)ccc(C)c3o2)c(=O)[nH]c1C,clinical isolate,A018A/H112-2,CEM,,0.025 µM

Repeating the first 7 entries:

compound,conditions,strain or isolate,cell line,changes,value
O=C(N[C@H]1c2ccccc2OC[C@H]1O)[C@H](Cc1cccnc1)C[C@H](O)CN1CCN(Cc2ccn(-c3ccccc3Cl)c2)C[C@H]1C(=O)NCC(F)(F)F,,NL4-3 WT,MT-4,,≤0.008 µM
O=C1c2c(O)c(=O)n(C3CCCCN(Cc4ccccc4)C3=O)c(=O)n2CCN1Cc1ccc(F)cc1,,,MT-4,,<10 µM
O=C(N[C@H]1c2ccccc2OC[C@H]1O)[C@H](Cc1cccnc1)C[C@H](O)CN1CCN(Cc2ccn(-c3cc(Cl)c(Cl)c(Cl)c3)c2)C[C@H]1C(=O)NCC(F)(F)F,,Q-60C Clinical isolate,MT-4,PR-L10I N37S R41K M46I I54V I62V L63P A71V V77I V82A L90M I93L,≤0.008 µM
CCn1nc(Cc2ccc(C#N)cc2)cc1C1CCN(C[C@H]2CN([C@@H](C(=O)O)C(C)(C)C)C[C@@H]2c2cccc(F)c2)CC1,50% human serum,BaL,PBMC,,0.0093 µM
CN(C)C(=O)C(=O)N1CCOCC1Cn1c(=O)c(O)c2n(c1=O)CCN(Cc1ccc(F)cc1)C2=O,,,MT-4,,<10 µM
CC(C)(c1ncc(-c2ccc(Cl)cc2)o1)N1CCN(C[C@@H](O)C[C@@H](Cc2cc3ccncc3s2)C(=O)N[C@H]2c3ccccc3OC[C@H]2O)[C@H](C(=O)NCC(F)(F)F)C1,,NL4-3,MT-4,,<0.0078 µM
CC[C@H](C)[C@H](C(=O)O)N1C[C@H](CN2CCC(c3cc(Cc4ccc(OC)c(OC)c4)nn3CC)CC2)[C@@H](c2cccc(F)c2)C1,,BaL,PBMC,,0.0055 µM